This note sets out measurements from PMC12663866, “Engineered Low‐Endotoxin Bacterial Biomimetic Vesicles for Enhanced Oral Dual‐Antigen Subunit Vaccine Delivery” (2025).

The target of this assay is ClyA‐SpG‐6×His displayed on the surface of CSS‐BBV (not stated | Streptococcus (species not stated)). Put plainly: ultrafiltration, free protein measured by A280.

In the case of “gD‐Fc (pseudorabies virus gD fused to the Fc fragment of porcine IgG1) (Fc fusion)”, the maximum conjugation efficiency (percent of input bound) is 69.9%.
